The target of test [1] is MtSerB2 (Mycobacterium tuberculosis, UniProt O53289). The experiment in a line: Inhibition of MtSerB2 hydrolysis of L-phosphoserine (malachite green). In kind it is biochemical, M. tuberculosis.
Test [2] concerns the target PSP domain of MtSerB2 (PSPD) (Mycobacterium tuberculosis, UniProt O53289). In kind it is biochemical, M. tuberculosis.

Chains of the proteins cited; added tags and fusions are not shown. Residues count along the entry.
UniProt O53289, 165-409 limits assumed: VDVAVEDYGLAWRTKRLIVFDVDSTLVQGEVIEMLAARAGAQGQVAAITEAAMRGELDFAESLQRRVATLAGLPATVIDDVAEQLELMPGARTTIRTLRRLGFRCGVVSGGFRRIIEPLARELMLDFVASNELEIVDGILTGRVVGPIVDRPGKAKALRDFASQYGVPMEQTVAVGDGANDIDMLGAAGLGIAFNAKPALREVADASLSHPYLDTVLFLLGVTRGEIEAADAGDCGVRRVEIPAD

Read-outs that look alike come from different tables or passages of the source.

One may read the IC50 as the concentration needed to halve the response being measured. Turning to Sodium Vanadate, the IC50 is roughly 2500 µM in test [1] (read-out: IC50), 2540 ± 198 µM in test [1] (read-out: IC50 (µM) SerB2) and 2240 ± 150 µM in test [2].

These data come from publication PMC4270767 (PLoS ONE, 2014).
